Pooled drug test results. Numbers come from NIAID ChemDB, via PubChem.

Shared fields: whole-cell or culture tests; agent: HIV-1; cell line: CEM + CEM-SS; endpoint: EC50

a–b is a range or a potency band. ECn: concentration that inhibits the pathogen or its effect by n%. Blank or dashed fields: not listed here. Neighbouring rows are from separate reports.

SMILES | strain | changes | method | value
CCCc1cc(=O)oc2c3c(c4c(c12)OC(C)(C)CC4)O[C@@H](C)[C@H](C)[C@@H]3O | NL4-3 | RT-V106I | cytopathic effect / XTT | 0.8 µM
O=C(NCCc1ccccc1)C1=Cc2ccncc2CC1 | RF |  | cytopathic effect / MTT | >34 µM
Cc1cc(OC(F)(F)c2nc3ccccc3o2)cc(C)c1C | RF |  | cytopathic effect / XTT | 13 µM
O=c1ccn([C@H]2C=C[C@@H](CO)O2)c(=O)n1CCCCN1CCN(CCNC(=S)Nc2ccc(Br)cn2)CC1 | IIIB |  | RT activity | >100 µM
CCCc1cc(=O)oc2c3c(c4c(c12)OC(C)(C)CC4)O[C@H](C)[C@@H](C)[C@@H]3O | SK1 |  | cytopathic effect / XTT | 0.14 µM
CCOCc1cn([C@H]2C=C[C@@H](CO)O2)c(=O)[nH]c1=O | Nevirapine-resistant |  | RT activity | 3 µM
COc1c(Cl)cc(C(=CCNC(=O)C[C@H]2CC[C@]3(C)C4CC[C@@]5(C)C(CC[C@@H]5CC(=O)NCC=C(c5cc(Cl)c(OC)c(C(=O)O)c5)c5cc(Cl)c(OC)c(C(=O)O)c5)C4CC[C@H]3C2)c2cc(Cl)c(OC)c(C(=O)O)c2)cc1C(=O)O | RF |  | cytopathic effect / MTT | 35 µM
CCCCCCCCCCCCCCCCCC(=O)Nc1cc(S(=O)(=O)O)cc2cc(S(=O)(=O)O)cc(O)c12 |  |  |  | 130 µM
Cc1cc(S(=O)(=O)Nc2nc(N)n(-c3ccccc3)n2)c(S)cc1Cl | RF |  | cytopathic effect / XTT | 64 µM
Cc1cc(C)cc(Sc2c(N)c(=O)[nH]c3ccccc23)c1 | N119(RT-Y181C) | RT-Y181C | cytopathic effect / MTT | 2.2 µM
CC1(C)OC(c2cnn(-c3ccccc3)n2)C(C2CO2)O1 | IIIB |  | cytopathic effect / MTS | >100 µM
Nc1ccn([C@H]2CC[C@@H](CO)O2)c(=O)n1 | IIIB |  |  | 0.0693 µM
CC(C)CCC[C@@H](C)[C@H]1CC[C@H]2[C@@H]3CC[C@H]4C[C@@H](CCC=C(c5cc(Cl)c(O)c(C(=O)O)c5)c5cc(Cl)c(O)c(C(=O)O)c5)CC[C@]4(C)[C@H]3CC[C@]12C | RF |  | cytopathic effect | 2–15 µM
COc1c(Cl)cc(C(=CCCNC(=O)C[C@H]2CC[C@]3(C)C4CC[C@@]5(C)C(CC[C@@H]5CC(=O)NCCC=C(c5cc(Cl)c(OC)c(C(=O)O)c5)c5cc(Cl)c(OC)c(C(=O)O)c5)C4CC[C@H]3C2)c2cc(Cl)c(OC)c(C(=O)O)c2)cc1C(=O)O | RF |  | cytopathic effect / MTT | 38 µM
O=c1[nH]c(=O)n([C@H]2C=C[C@@H](CO)O2)cc1CO | Nevirapine-resistant |  | RT activity | 0.2 µM
C[C@]12CCC3C(CC[C@H]4C[C@@H](CC=C(c5cc(Cl)c(O)c(C(=O)O)c5)c5cc(Cl)c(O)c(C(=O)O)c5)CC[C@]34C)C1CC[C@@H]2CC=C(c1cc(Cl)c(O)c(C(=O)O)c1)c1cc(Cl)c(O)c(C(=O)O)c1 | RF |  | cytopathic effect / MTT | 12 µM
CCCCCCCCCNCC(O)C(O)C(OC1OC(CO)C(O)C(O)C1O)C(O)CO |  |  |  | 1000 µM
CC(=O)SCCOP(=O)(OCCSC(C)=O)OC[C@@H]1C=C[C@H](n2cc(C)c(=O)[nH]c2=O)O1 |  |  |  | 0.006 µM
CC(=O)OCCCc1cc(Sc2cc(C)cc(C)c2)c([N+](=O)[O-])c(=O)[nH]1 | LAI |  | cytopathic effect | 1 µM
CN(C)C1=C(C#N)/C(=C2/C(C#N)=C(N(C)C)N(c3ccc([N+](=O)[O-])cc3)c3c2n(C)c2ccccc32)c2c(c3ccccc3n2C)N1c1ccc([N+](=O)[O-])cc1 | HEPT-resistant (RT P236L) | RT-P236L | cytopathic effect / XTT | 0.97 µM
Cc1ccnc(SC(F)(F)c2nc3ccccc3o2)n1 | IIIB |  | cytopathic effect / XTT | 0.067 µM
Cc1cc(S(=O)(=O)Nc2nc3ncccc3[nH]2)c(S)cc1Cl |  |  | cytopathic effect / MTT | 32.1 µM
Cc1cn([C@H]2C[C@H](N=[N+]=[N-])[C@@H](CO)O2)c(=O)[nH]c1=O | RF |  | cytopathic effect / MTS | 0.006 µM
CCc1c(C)[nH]c(=O)c(N)c1Sc1cc(C)cc(C)c1 | N119(RT-Y181C) | RT-Y181C | cytopathic effect / MTT | 6.6 µM
Cc1cn([C@H]2C=C[C@@H](CO)O2)c(=O)n(CCCN2CCN(CCNC(=S)Nc3ccc(Br)cn3)CC2)c1=O | IIIB |  | RT activity | >100 µM
CN1N=C(N)c2cn([C@@H]3O[C@H](COP(=O)(O)O)[C@@H](O)[C@H]3O)c3ncnc1c23 | IIIB |  | cytopathic effect / XTT | 0.02 µM
CCCCCCCCCCCCCCCC(=O)Nc1ccc2cc(S(=O)(=O)O)cc(S(=O)(=O)O)c2c1 |  |  |  | 50 µM
C/C=C/CSc1cc(NC(=S)c2ccsc2C)ccc1Cl | IIIB |  | p24 | 0.4 µM
CC1(C)OC(C(O)CN2CCCCC2)[C@H](c2cnn(-c3ccccc3)n2)O1 | IIIB |  | cytopathic effect / MTS | >100 µM
CCc1c[nH]c(=O)c(N)c1Sc1cc(C)cc(C)c1 | N119(RT-Y181C) | RT-Y181C | cytopathic effect / MTT | 41.5 µM
COc1cc(-c2ccc(N=Nc3ccc4c(S(=O)(=O)O)cc(S(=O)(=O)O)c(N)c4c3O)c(OC)c2)ccc1N=Nc1ccc2c(S(=O)(=O)O)cc(S(=O)(=O)O)c(N)c2c1O | MN |  | RT activity | 0.9 µM
Cc1cc(C)cc(Sc2c(C)c[nH]c(=O)c2N)c1 | N119(RT-Y181C) | RT-Y181C | cytopathic effect / MTT | 2.1 µM
O=C(CCCCCCCCCCC(=O)Nc1ccc2cc(S(=O)(=O)O)cc(S(=O)(=O)O)c2c1)Nc1ccc2cc(S(=O)(=O)O)cc(S(=O)(=O)O)c2c1 |  |  |  | 38 µM
CCCCCCCCCCCCCCCCNc1ccn([C@H]2C[C@H](OP(=O)(O)OC[C@@H]3CC[C@H](n4ccc(N)nc4=O)O3)[C@@H](CO)O2)c(=O)n1 |  |  | cytopathic effect / XTT | 1.39 µM
CC(C)Oc1ccccc1CNC(=O)c1ccc2cnccc2n1 | RF |  | cytopathic effect / MTT | >31 µM
O=c1ccn([C@H]2C=C[C@@H](CO)O2)c(=O)n1CCOCCN1CCN(CCNC(=S)Nc2ccc(Br)cn2)CC1 | IIIB |  | RT activity | >100 µM
CCCCCCCCCCCCCCCC(=O)Nc1ccn([C@H]2CC[C@@H](COP(=O)(O)O[C@H]3C[C@H](n4cc(C)c(=O)[nH]c4=O)O[C@@H]3CO)O2)c(=O)n1 | Calo-resistant (RT T139I) | Calanolide-resistant (RT T139I) | cytopathic effect / XTT | 0.151 µM
Cc1nc(CCCCCCC(=O)c2ccccc2)n2nc(NCCCCCCCCCCCCNCc3cn([C@H]4C=C[C@@H](CO)O4)c(=O)[nH]c3=O)ccc12 | LAI |  | RT activity | 0.037 µM
CCCCCCCCCCCCCC(=O)Nc1ccc2cc(S(=O)(=O)O)cc(S(=O)(=O)O)c2c1 |  |  |  | 150 µM
CCc1c(C)[nH]c(=O)c([N+](=O)[O-])c1Sc1cc(C)cc(C)c1 | LAI |  | cytopathic effect | 0.006 µM
Cc1nc(CCCCCCC(=O)c2ccccc2)n2nc(NCCCCCCN)ccc12 | LAI |  | RT activity | 8.75 µM
FC(F)(Sc1ncccn1)c1nc2ccccc2o1 | CALO(RT-T139I) | RT-T139I | cytopathic effect / XTT | 3.2 µM
S=C(NCCN1CCNCC1)Nc1ccc(Br)cn1 | IIIB |  | RT activity | 13 µM
COc1c(Cl)cc(C(=CCCCCN[C@@H]2CC[C@]3(C)C4CC[C@@]5(C)C(CC[C@@H]5C(C)CCCC(C)C)C4CC[C@H]3C2)c2cc(Cl)c(OC)c(C(=O)O)c2)cc1C(=O)O | RF |  | cytopathic effect / MTT | >200 µM
Cc1nc(CCCCCCC(=O)c2ccccc2)n2nc(NCCCCCCCCN)ccc12 | LAI |  | RT activity | 6.2 µM

The last 5 rows once more:

{"SMILES": "Cc1nc(CCCCCCC(=O)c2ccccc2)n2nc(NCCCCCCN)ccc12", "strain": "LAI", "method": "RT activity", "value": "8.75 µM"}
{"SMILES": "FC(F)(Sc1ncccn1)c1nc2ccccc2o1", "strain": "CALO(RT-T139I)", "changes": "RT-T139I", "method": "cytopathic effect / XTT", "value": "3.2 µM"}
{"SMILES": "S=C(NCCN1CCNCC1)Nc1ccc(Br)cn1", "strain": "IIIB", "method": "RT activity", "value": "13 µM"}
{"SMILES": "COc1c(Cl)cc(C(=CCCCCN[C@@H]2CC[C@]3(C)C4CC[C@@]5(C)C(CC[C@@H]5C(C)CCCC(C)C)C4CC[C@H]3C2)c2cc(Cl)c(OC)c(C(=O)O)c2)cc1C(=O)O", "strain": "RF", "method": "cytopathic effect / MTT", "value": ">200 µM"}
{"SMILES": "Cc1nc(CCCCCCC(=O)c2ccccc2)n2nc(NCCCCCCCCN)ccc12", "strain": "LAI", "method": "RT activity", "value": "6.2 µM"}